# PubChem BioAssay AID1224833 – University of Georgia, 2016
# Test: 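Human genes whose knock-down alters rotavirus replication in monkey cells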 (primary screen)
# Cell system: monkey MA104 kidney cells
# Reagent: siRNA pool against human genes, 50 nM
# Duration: 48 h knock-down before infection; read 24 h after infection
# Challenge: infection with rotavirus strain RV3 two days after transfection; infectious dose for this stage not given
# Measured: 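z-score of rotavirus antigen signal per well, from a fluorescent immunoassay, relative to non-targeting control wells on the same plate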
# Scale: z-score vs non-targeting control: higher = more rotavirus replication than with non-targeting control
# Active means: In these data the active calls have z-score vs non-targeting control at about -1 or lower, or at about 1 or higher
# Meaning of the calls: active = z-score beyond 1 either way; inactive = z-score within 1 of zero
# The deposit covers about 12,000 reagents; this is a part drawn at random. About 5,600 of them (46%) count as active. 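Active calls cover z-scores past 1 in both directions, so they include lowered as well as raised rotavirus replication.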 The numbers tell different reagents against one gene apart.
gene knocked down,reagent no.,z-score vs non-targeting control,call
CAVIN2,1,0.869,inactive
GUCY1A1,1,-1.26,active
NFIC,1,-1.45,active
PALM2AKAP2,1,0.673,inactive
PALM2AKAP2,2,1.31,active
PALM2AKAP2,3,0.215,inactive
CD44,1,0.414,inactive
UGT1A10,1,-2.12,active
OXCT2,1,-0.775,inactive
ING3,1,-1.81,active
S100A10,1,-2.85,active
CD63,1,-0.368,inactive
GPR149,1,-0.629,inactive
MLH1,1,-0.847,inactive
SLC27A1,1,1.18,active
HNRNPH2,1,-2.07,active
ERCC4,1,1.15,active
ZNF675,1,-0.134,inactive
ZNF394,1,0.285,inactive
ASCL3,1,-1.66,active
PTRH2,1,-1.5,active
AKIP1,1,-0.0782,inactive
SLC39A14,1,-0.277,inactive
GYS2,1,-1.58,active
LY6G5B,1,0.387,inactive
LENG9,1,-0.0496,inactive
INTS3,1,-0.672,inactive
TRIP13,1,-2.69,active
OSCP1,1,-0.906,inactive
SACK1B,1,-0.773,inactive
TBC1D31,1,-0.387,inactive
RHBDL1,1,1.2,active
STOML2,1,-1.57,active
ESCO2,1,1.64,active
CS,1,-0.861,inactive
STARD3,1,1.7,active
INS,1,0.179,inactive
TFPI2,1,1.85,active
POLD2,1,-0.704,inactive
TCF12,1,-1.87,active
RIN3,1,-0.925,inactive
CMTR1,1,-0.135,inactive
DEFB126,1,3.92,active
DDX41,1,-1.02,active
CD3E,1,-1.64,active
HOXB9,1,-0.721,inactive
SMC5,1,0.393,inactive
F2RL3,1,0.701,inactive
FAM153A,1,-1.31,active
SKIC2,1,-0.864,inactive
APOLD1,1,0.622,inactive
NUP210,1,1.19,active
CLEC9A,1,0.779,inactive
NNMT,1,2.46,active
AGL,1,0.891,inactive
OR52J3,1,-0.447,inactive
CNFN,1,-1.32,active
SATB1,1,0.644,inactive
RTN3,1,-1.03,active
EXTL1,1,2.83,active
NRDE2,1,0.84,inactive
ZNF829,1,1.4,active
ZNF658,1,-0.508,inactive
GSDME,1,0.292,inactive
WDR53,1,1.53,active
MOB3A,1,0.356,inactive
LRRC28,1,0.216,inactive
SLC11A2,1,0.812,inactive
TAS2R10,1,-0.395,inactive
ABHD18,1,1.72,active
CTNNBL1,1,0.605,inactive
DNAJC16,1,-0.895,inactive
ZNF256,1,-0.945,inactive
CCDC125,1,0.204,inactive
LDHA,1,-0.689,inactive
STEAP4,1,1.87,active
RIMS4,1,-1.23,active
PLCL1,1,-1.95,active
HAPSTR1,1,1.21,active
OR10W1,1,-2.09,active
SYNPR,1,-0.34,inactive
TRUB1,1,-1.09,active
GKN1,1,1.14,active
OPN4,1,-1.01,active
COL11A2,1,-0.392,inactive
NWD1,1,2.62,active
NUDC,1,-0.954,inactive
H3C12,1,1.4,active
PELI2,1,0.289,inactive
OLAH,1,-0.98,inactive
SPDYE3,1,-1.06,active
CEND1,1,-2.23,active
IFT122,1,-1.04,active
OR51G2,1,-0.342,inactive
H2AB2,1,0.296,inactive
MRPL15,1,-0.925,inactive
SLC75A1,1,-1.92,active
LINC02897,1,-0.506,inactive
MS4A13,1,2.92,active
AMER2,1,-1.08,active
ATG13,1,-0.711,inactive
ARID1B,1,0.67,inactive
SLPI,1,-1.14,active
DMXL1,1,-1.01,active
OR52E6,1,-3.18,active
ARMC1,1,-0.827,inactive
GTPBP1,1,1.34,active
PEAR1,1,1.31,active
PLEKHM3,1,-1.69,active
LPAR4,1,-0.898,inactive

Not a retest: an excerpt of the list.
gene knocked down,reagent no.,z-score vs non-targeting control,call
ZNF394,1,0.285,inactive
ASCL3,1,-1.66,active
PTRH2,1,-1.5,active
AKIP1,1,-0.0782,inactive
SLC39A14,1,-0.277,inactive
GYS2,1,-1.58,active
LY6G5B,1,0.387,inactive
LENG9,1,-0.0496,inactive
INTS3,1,-0.672,inactive
TRIP13,1,-2.69,active
OSCP1,1,-0.906,inactive
SACK1B,1,-0.773,inactive
TBC1D31,1,-0.387,inactive
RHBDL1,1,1.2,active
STOML2,1,-1.57,active
ESCO2,1,1.64,active
